Laboratory results: PubChem BioAssay AID624099 (ICCB-Longwood, 2012)
Assay: 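Knock-downs relieving repression by E2 of an HPV18 LCR luciferase reporter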 (primary screen). System: human C33A cervical carcinoma cells (HPV-negative) stably expressing BPV1 E2 and an HPV18 LCR luciferase reporter. Knock-down reagent: siRNA pool against human genes, 40 nM. Duration: 72 h. Read-out: 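Per-well luciferase luminescence, z-scored on each plate against the plate mean and SD with control wells left out, then averaged across three replicate plates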. Direction: mean z-score and z-score: higher = stronger reporter signal, weaker E2 silencing. Call rule: 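Hit if mean z-score reaches 2 and two or more of three replicate z-scores also reach 2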.
Shown is one part, drawn at random, of about 21,000 reagents. Of all reagents, 497 (2.4%) got an active call. 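Higher z means weaker E2 silencing; only reporter increases were scored, and knock-downs that hurt cell survival may mask genuine repressor factors.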 Reagent sequences are not shown.

{"target":"FLJ27243 (retired record)","mean z-score":0.89,"z-score, replicate A":0.8,"z-score, replicate B":0.96,"z-score, replicate C":0.9,"Call":"inactive"}
{"target":"FZD4","mean z-score":-0.3,"z-score, replicate A":-0.14,"z-score, replicate B":-0.54,"z-score, replicate C":-0.22,"Call":"inactive"}
{"target":"POU2F3","mean z-score":0.17,"z-score, replicate A":0.09,"z-score, replicate B":0.22,"z-score, replicate C":0.2,"Call":"inactive"}
{"target":"MTMR12","mean z-score":-0.76,"z-score, replicate A":-0.92,"z-score, replicate B":-0.82,"z-score, replicate C":-0.56,"Call":"inactive"}
{"target":"HDAC1","mean z-score":0.52,"z-score, replicate A":0.32,"z-score, replicate B":0.59,"z-score, replicate C":0.66,"Call":"inactive"}
{"target":"LYRM2","mean z-score":-1.21,"z-score, replicate A":-1.09,"z-score, replicate B":-1.06,"z-score, replicate C":-1.48,"Call":"inactive"}
{"target":"SPDL1","mean z-score":-0.53,"z-score, replicate A":-0.59,"z-score, replicate B":-0.69,"z-score, replicate C":-0.3,"Call":"inactive"}

Records above whose target name starts with F or f:
{"target":"FLJ27243 (retired record)","mean z-score":0.89,"z-score, replicate A":0.8,"z-score, replicate B":0.96,"z-score, replicate C":0.9,"Call":"inactive"}
{"target":"FZD4","mean z-score":-0.3,"z-score, replicate A":-0.14,"z-score, replicate B":-0.54,"z-score, replicate C":-0.22,"Call":"inactive"}

Additional records:
{"target":"CLCN6","mean z-score":-0.31,"z-score, replicate A":-0.21,"z-score, replicate B":-0.37,"z-score, replicate C":-0.35,"Call":"inactive"}
{"target":"TRIM3","mean z-score":-0.7,"z-score, replicate A":-0.67,"z-score, replicate B":-0.77,"z-score, replicate C":-0.67,"Call":"inactive"}
{"target":"CEACAM4","mean z-score":1.61,"z-score, replicate A":1.75,"z-score, replicate B":1.14,"z-score, replicate C":1.93,"Call":"inactive"}
{"target":"QRICH1","mean z-score":0.82,"z-score, replicate A":0.61,"z-score, replicate B":0.76,"z-score, replicate C":1.08,"Call":"inactive"}
{"target":"OGFOD3","mean z-score":1.08,"z-score, replicate A":1.14,"z-score, replicate B":0.95,"z-score, replicate C":1.15,"Call":"inactive"}
